## Share of PSTVd loop 6 variants by leaf site

Values reported by Wu et al. 2024 (doi:10.1371/journal.ppat.1012142).

The pool varies loop 6 of the PSTVd intermediate strain in the pattern UNNNCGNNNG; wild type is UGACCGCGAG (upper and lower strand joined, each 5' to 3', the first 5 letters being the upper strand, closing pairs included).

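Three N. benthamiana plants were inoculated with the whole mutant pool. Progeny were sequenced from the inoculated region (day 5), the margin of the inoculated leaf (day 10) and systemic leaves (day 12).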

Numbers give reads per thousand; 0 = not seen among the reads, higher = more abundant.
Each site shows the three plants.
"Pool" is the share in the plasmid pool used as inoculum, on the same scale.
The inoculated region was read from the minus strand, the other sites from the plus strand.

sequence	pool	inoculated region	leaf margin	systemic leaves
UGCUCGCCAG	0.196	0.0869 0.0719 0.0922	0 0 0.0232	0 0 0
UGCUCGCCCG	0.288	0.122 0.0539 0.0553	0.0276 0 0	0 0 0
UGCUCGCCGG	0.183	0.122 0.0719 0.111	0 0 0.0464	0 0 0
UGCUCGCCGU	0.0131	0 0 0	0 0 0	0 0 0
UGCUCGCCUG	0.235	0.104 0.0898 0.0738	0 0 0.0232	0 0 0
UGCUCGCGAG	0.157	0.226 0.359 0.203	0.138 0 0.0232	0.0180 0 0.779
UGCUCGCGCG	0.105	0.122 0.0539 0.129	0.0828 0 0	0 0 0
UGCUCGCGGG	0.196	0.139 0.108 0.148	0 0 0	0 0 0
UGCUCGCGUG	0.196	0.156 0.180 0.0738	0.0276 0 0	0 0 0
UGCUCGCUAG	0.105	0.122 0.0898 0.0738	0.0276 0 0.0232	0 0 0
UGCUCGCUCG	0.288	0.174 0.0539 0.0738	0.0276 0 0.0464	0 0 0
UGCUCGCUGG	0.170	0.122 0.0359 0.0738	0 0 0.0232	0 0 0
UGCUCGCUUG	0.288	0.0869 0.108 0.111	0 0 0.0464	0 0 0
UGCUCGGAAG	0.105	0.174 0.0359 0.0553	0 0 0	0 0 0
UGCUCGGAAU	0.0131	0 0 0	0 0 0	0 0 0
UGCUCGGACC	0.0131	0 0 0	0 0 0	0 0 0
UGCUCGGACG	0.235	0.174 0.0898 0.0553	0.0276 0 0	0 0 0
UGCUCGGAGG	0.209	0.0695 0.0719 0.0738	0 0 0	0 0 0
UGCUCGGAUG	0.196	0.0869 0.0719 0.0553	0.0552 0 0.0232	0.0180 0 0
UGCUCGGCAG	0.261	0.174 0.0180 0.0738	0 0 0.0232	0 0.0606 0.0615
UGCUCGGCCG	0.222	0.0869 0.0898 0.0922	0 0 0	0 0 0
UGCUCGGCGG	0.183	0.0869 0.0898 0.0738	0 0 0	0 0 0
UGCUCGGCUG	0.144	0.643 0.719 0.479	0.0828 0.151 0.139	0 0 0
UGCUCGGGAG	0.118	0.122 0.162 0.129	0 0 0	0 0 0
UGCUCGGGCG	0.209	0.0869 0.0898 0.0369	0 0 0	0 0 0
UGCUCGGGGG	0.118	0.139 0.0898 0.0922	0 0 0	0 0 0
UGCUCGGGUG	0.209	0.104 0.0719 0.0369	0 0 0	0 0 0
UGCUCGGUAG	0.353	0.139 0 0.0922	0.0276 0 0.0232	0 0.0404 0
UGCUCGGUCG	0.131	0.156 0.0719 0.0922	0.0276 0 0.0232	0 0 0
UGCUCGGUGG	0.248	0.156 0.126 0.0738	0 0 0	0 0 0
UGCUCGGUUG	0.353	0.156 0.0898 0.0553	0 0 0	0 0 0
UGCUCGUAAG	0.131	0.139 0.0898 0.0184	0.0276 0 0	0 0 0
UGCUCGUACG	0.235	0.191 0.0719 0.0184	0 0 0	0 0 0
UGCUCGUAGG	0.248	0.104 0.180 0.0369	0 0 0	0 0 0
UGCUCGUAUG	0.288	0.139 0.0898 0.0738	0.221 0 0	0 0 0
UGCUCGUCAG	0.275	0.104 0.0180 0.0553	0 0 0	0 0 0
UGCUCGUCCG	0.288	0.0869 0.0359 0.0553	0 0 0	0 0 0
UGCUCGUCGG	0.183	0.104 0.0898 0.0922	0 0 0	0 0 0
UGCUCGUCUG	0.235	0.122 0.0359 0.0553	0 0 0.0232	0 0 0.0205
UGCUCGUGAG	0.235	0.139 0.0719 0.0369	0 0 0	0 0 0
UGCUCGUGCG	0.261	0.122 0.0719 0.0369	0 0 0.0232	0 0 0
UGCUCGUGGG	0.209	0.139 0.0719 0.0369	0 0 0	0 0 0
UGCUCGUGUG	0.275	0.0869 0.0719 0.0738	0 0 0.0232	0 0 0
UGCUCGUUAG	0.405	0.0521 0.0898 0.203	0.0276 0 0	0 0 0
UGCUCGUUCG	0.275	0.104 0.0180 0.0738	0.0276 0 0.0232	0 0 0
UGCUCGUUGG	0.261	0.0869 0.0719 0.129	0 0 0.0232	0 0 0
UGCUCGUUUG	0.431	0.0869 0.0898 0.111	0.0552 0 0.0232	0 0 0
UGCUCUGCAG	0.0131	0 0 0	0 0 0	0 0 0
UGGACGAAAG	0.131	0.122 0.0539 0.0738	0 0 0	0 0 0
UGGACGAACG	0.235	0.156 0.126 0.0738	0 0 0	0 0 0
UGGACGAAGG	0.183	0.139 0.144 0.0553	0 0 0.0464	0 0 0
UGGACGAAUG	0.248	0.122 0.0898 0.0738	0.0276 0 0.0232	0 0 0
UGGACGACAG	0.222	0.174 0.0359 0.0738	0 0 0	0 0 0
UGGACGACCG	0.157	0.0695 0.144 0.129	0 0 0	0 0 0
UGGACGACGG	0.170	0.174 0.108 0.0553	0.0276 0 0.0232	0 0 0
UGGACGACUG	0.288	0.156 0.108 0.111	0 0 0	0 0 0.0205
UGGACGAGAG	0.275	0.817 0.629 0.738	0.138 0.202 0.0928	0 0 0.0205
UGGACGAGCG	0.131	0.0521 0.144 0.0184	0 0 0	0 0 0
UGGACGAGGG	0.235	0.139 0.126 0.0369	0 0 0	0 0 0
UGGACGAGUG	0.118	0.122 0.0898 0.0738	0 0 0	0 0 0
UGGACGAUAG	0.314	0.174 0.0898 0.111	0 0 0.186	0 0 0
UGGACGAUCG	0.327	0.104 0.0359 0.111	0 0 0.0232	0 0 0
UGGACGAUGG	0.301	0.0521 0.0898 0.0553	0 0 0	0 0 0
UGGACGAUUG	0.405	0.0348 0.0359 0.0922	0 0 0	0 0 0
UGGACGCAAG	0.144	0.191 0.144 0.203	0 0 0	0 0 0
UGGACGCACG	0.261	0.139 0.126 0.111	0 0 0	0 0 0
UGGACGCAGG	0.209	0.0869 0.198 0.0553	0 0 0	0 0 0
UGGACGCAUG	0.196	0.122 0.144 0.0553	0 0 0.0232	0 0 0
UGGACGCCAG	0.497	0.226 0.144 0.148	0 0 0.116	0 0 0
UGGACGCCCG	0.588	0.0521 0.144 0.166	0 0 0	0 0 0
UGGACGCCGG	0.222	0.0695 0.0539 0.0553	0 0 0.0232	0 0 0
UGGACGCCUG	0.340	0.139 0.198 0	0 0 0	0 0 0
UGGACGCGAG	0.222	0.330 0.198 0.424	0 0.404 0.0464	0.0180 0.0404 0.144

Excerpt, the final 5 entries:

UGGACGCCAG (pool 0.497): inoculated region 0.226 0.144 0.148; leaf margin 0 0 0.116; systemic leaves 0 0 0.
UGGACGCCCG (pool 0.588): inoculated region 0.0521 0.144 0.166; leaf margin 0 0 0; systemic leaves 0 0 0.
UGGACGCCGG (pool 0.222): inoculated region 0.0695 0.0539 0.0553; leaf margin 0 0 0.0232; systemic leaves 0 0 0.
UGGACGCCUG (pool 0.340): inoculated region 0.139 0.198 0; leaf margin 0 0 0; systemic leaves 0 0 0.
UGGACGCGAG (pool 0.222): inoculated region 0.330 0.198 0.424; leaf margin 0 0.404 0.0464; systemic leaves 0.0180 0.0404 0.144.

Wild type was 20.7 per thousand in the pool and the most common sequence in every sample (inoculated region 195, 198, 203; leaf margin 629, 591, 734; systemic leaves 942, 870, 868).
With 36,220-57,551 reads a sample, very low values are single reads.
The authors trace changes outside the varied positions to PCR and sequencing errors or to mutation in the plant; presence does not show that a variant is infectious alone.